# Measurements published in patent publication US4708871A, “Antigenically active amino acid sequences” (priority 1983, dated 1987).
# No end group written: not given here.
# System: anti-intact virus particle type A10 antiserum
# Assay type: binding, rabbit
substance,measurement,value
DLGSIA [D - L - G - S - I - A],Contribution to the virus particle-associated antigenic determinant,principal loci
